Pooled drug test results. Numbers come from NIAID ChemDB, via PubChem.

Common to all: tests on isolated targets

ICn is the concentration giving n% inhibition. An empty or dashed field is not shown. Lines come from different laboratories, so protocols vary. Percent inhibition refers to the dose given; in toxicity tests it is the harm to the cells.

smiles	target	agent	read by	tested at	read-out	strain or isolate	result
CC1(C)OC2OC([C@@H]3CC(=O)N(c4ccc(Cl)cc4)C(=O)N3)[C@H](Oc3ccccc3)C2O1	Alpha-glucosidase	Mycobacterium aurum	-	100 µM	inhibition	-	2.5%
CO[C@H]1/C=C/O[C@@]2(C)Oc3c(C)c(O)c4c(=O)c(c5oc6cc(N7CCN(CC(C)C)CC7)cc(=O)c6nc5c4c3=C2O)NC(=O)/C(C)=C\C=C\[C@H](C)[C@H](O)[C@@H](C)[C@@H](O)[C@@H](C)[C@H](OC(C)=O)[C@@H]1C	RNA polymerase	Mycobacterium avium	-	0.5 µg/mL	inhibition	N-265	58%
O=C(Nc1ccccc1)N1CCc2c(c(-c3ccccc3)nn2Cc2cn(-c3ccc(Cl)cc3Cl)nn2)C1	Pantothenate synthetase	Mycobacterium tuberculosis	absorbance	-	IC50	-	1.29 µM
C[C@]1(Cn2ccnn2)[C@H](C(=O)O)N2C(=O)C[C@H]2S1(=O)=O	Beta-lactamase	Mycobacterium tuberculosis	-	-	IC50	TB2	1 µg/mL
CCCCCCCCCCCCN(C(=O)Nc1cccc(C(C)=O)c1)[C@@H](CC(=O)OCC)C1O[C@@H]2OC(C)(C)O[C@@H]2[C@H]1Oc1ccccc1	Alpha-glucosidase	Mycobacterium aurum	-	100 µM	inhibition	-	11.9%
O=c1sn(-c2ccc(F)c(Cl)c2)c(=O)n1C1Cc2ccccc2C1	Alanine racemase	Mycobacterium tuberculosis	HPLC	-	IC50	H37Rv	8.46 µM
CC1(C)[C@H](C(=O)O)N2C(=O)C[C@H]2S1(=O)=O	Beta-lactamase	Mycobacterium tuberculosis	-	-	IC50	TB2	1 µg/mL
C[C@H]1COC2(CCN(c3nc(=O)c4cc(C(F)(F)F)cc([N+](=O)[O-])c4s3)CC2)O1	Cytochrome P450 3A4	Mycobacterium tuberculosis	fluorescence / absorbance	-	IC50	-	57.64 µM
O=c1sn(-c2ccccc2C(F)(F)F)c(=O)n1CC1CC1	Alanine racemase	Mycobacterium smegmatis	HPLC	-	IC50	mc2155	16.6 µM
O=C(Nc1ccccc1)N1CCc2c(c(-c3ccccc3)nn2Cc2cn(-c3ccccc3)nn2)C1	Pantothenate synthetase	Mycobacterium tuberculosis	absorbance	-	IC50	-	2.13 µM
CCCCCCCC/C=C\CCCCCCCCN(C(=O)NCc1ccccc1)[C@@H](CC(=O)OCC)C1O[C@@H]2OC(C)(C)O[C@@H]2[C@H]1Oc1ccccc1	Alpha-glucosidase	Mycobacterium aurum	-	100 µM	inhibition	-	12.3%
Cn1c(=O)sn(-c2cccc3ccccc23)c1=O	Alanine racemase	Mycobacterium smegmatis	HPLC	-	IC50	mc2155	20.09 µM
COCCN1CCN(C(=O)c2nc3cc(C(F)(F)F)c(C)c([N+](=O)[O-])c3s2)CC1	Cytochrome P450 2C9	Mycobacterium tuberculosis	fluorescence / absorbance	-	IC50	-	>100 µM
O=C(Nc1ccccc1)N1CCc2c(c(-c3ccccc3)nn2Cc2cn(-c3ccc(Cl)cc3)nn2)C1	Pantothenate synthetase	Mycobacterium tuberculosis	absorbance	-	IC50	-	6.36 µM
CCOC(=O)C[C@@H](C1O[C@@H]2OC(C)(C)O[C@@H]2[C@H]1OC)N(C(=O)NCc1ccccc1)C1CC1	Alpha-glucosidase	Mycobacterium aurum	-	100 µM	inhibition	-	81.7%
Cc1ccc(-n2cc(Cn3nc(-c4ccccc4)c4c3CCN(C(=O)Nc3ccccc3)C4)nn2)cc1C	Pantothenate synthetase	Mycobacterium tuberculosis	absorbance	-	IC50	-	6.91 µM
CCCCCCCCCCCCN(C(=O)Nc1ccc(Cl)cc1)[C@@H](CC(=O)OCC)C1O[C@@H]2OC(C)(C)O[C@@H]2[C@H]1Oc1ccccc1	Alpha-glucosidase	Mycobacterium aurum	-	100 µM	inhibition	-	94.3%
NNC(=O)c1ccncc1	Isocitrate lyase	Mycobacterium tuberculosis	-	1000 µM	inhibition	H37Rv	50%
Cc1cccc(Cl)c1-n1sc(=O)n(CC2CC2)c1=O	Alanine racemase	Mycobacterium tuberculosis	HPLC	-	IC50	H37Rv	4.48 µM
CCOC(=O)C[C@@H](C1O[C@@H]2OC(C)(C)O[C@@H]2[C@H]1Oc1ccccc1)N(C(=O)Nc1cccc(C(C)=O)c1)C1CC1	Alpha-glucosidase	Mycobacterium aurum	-	100 µM	inhibition	-	74.7%
CCOC(=O)c1cccc(-n2sc(=O)n(C3Cc4ccccc4C3)c2=O)c1	Alanine racemase	Mycobacterium tuberculosis	HPLC	-	IC50	H37Rv	28.76 µM
CC1(C)OC2OC([C@@H]3CC(=O)N(c4ccc(Cl)cc4)C(=O)N3C3CC3)[C@H](Oc3ccccc3)C2O1	Alpha-glucosidase	Mycobacterium aurum	-	100 µM	inhibition	-	0%
O=c1sn(-c2ccc([N+](=O)[O-])cc2Cl)c(=O)n1C1Cc2ccccc2C1	Alanine racemase	Mycobacterium smegmatis	HPLC	-	IC50	mc2155	>100 µM
CCOC(=O)C[C@H](NC(=O)Nc1ccc(Cl)cc1)C1O[C@@H]2OC(C)(C)O[C@@H]2[C@H]1OC	Alpha-glucosidase	Mycobacterium aurum	-	100 µM	inhibition	-	47%

A second listing of 2 rows from above:

smiles	target	agent	read by	tested at	read-out	strain or isolate	result
NNC(=O)c1ccncc1	Isocitrate lyase	Mycobacterium tuberculosis	-	1000 µM	inhibition	H37Rv	50%
Cc1cccc(Cl)c1-n1sc(=O)n(CC2CC2)c1=O	Alanine racemase	Mycobacterium tuberculosis	HPLC	-	IC50	H37Rv	4.48 µM